What was measured:
[1] = tested on: Leishmania amazonensis promastigotes; assay: Alamar Blue assay against promastigotes; assay type: cell-based; conditions: CC50 murine macrophages / IC50 promastigotes
Procedure: Leishmania amazonensis (MHOM/BR/77/LTB0016) promastigotes were cultured in RPMI 1640 medium (Gibco, Waltham, MA, USA), supplemented with 10 % FBS at 26 °C. Additionally, for maintenance, the promastigotes were cultured in SND medium (Sigma-Aldrich, Darmstadt, Germany) supplemented with 10 % FBS at 26 °C. Both media were supplemented with gentamicin at 10 µg/mL.
Compounds 1–5 were tested against promastigotes of Leishmania amazonensis using the colorimetric assay based on the Alamar Blue® reagent. In a 96-well plate, serial dilutions of the compounds and the promastigote form of the parasite (10^6 cells/mL) were added at a final volume of 200 µL.

[2] = tested on: L. amazonensis intracellular amastigotes; assay: Alamar Blue assay against intracellular amastigotes in murine macrophages; assay type: cell-based, Leishmania amazonensis; conditions: CC50 murine macrophages / IC50 amastigotes
Procedure: Briefly, in a 96-well plate, murine macrophages (2 × 10^5 cells/mL) were incubated in RPMI medium at 37 °C and 5 % CO2 atmosphere for 2–4 h. Promastigote forms of L. amazonensis (2 × 10^6 cells/mL) were added to reach a 1:10 macrophage:parasite ration, and after 24 h of incubation, the cells were washed to discard the not-introduced parasites. Serial dilutions of the compound were added in 100 µL of RPMI medium. Following 24 h of incubation, the plate was washed, and the cells were broken with SDS 0.05% for 30 s. Fresh medium was added, and 48 h later, 10% Alamar Blue® reagent was added.

| SMILES | SI (promastigotes) [1] | SI (amastigotes) [2] |
| --- | --- | --- |
| Cc1ccc([C@]2(C)CC[C@@H]3C[C@@]32C)c(O)c1 [Debromolaurinterol (3), debromolaurinterol] | 5.6 | 2.9 |
| CC1=CC(=O)C([C@]2(C)CC[C@@H]3C[C@@]32C)=CC1=O [Laurequinone (1), laurequinone] | 22.5 | 2.5 |
| CCCCCCCCCCCCCCCCOP(=O)([O-])OCC[N+](C)(C)C [Miltefosine, miltefosine, reference compound] | 11.1 | 23.2 |

From article PMC10304164, “Laurequinone, a Lead Compound against Leishmania” (Marine Drugs, 2023)
